Assay results published in the supplement of paper PMC9931576.
Human monoclonal antibodies against the spike receptor-binding domain (heavy:light variable regions). IC50 against pseudoviruses bearing the spike of naturally observed variants; lower = stronger; >10 µg/ml means not reached at the top dose. No active / inactive call. The stated detection limit is 0.0005 µg/ml; values near or below 0.001 µg/ml lie at the floor of the assay.

Key:
Experiment in all cases: pseudovirus neutralization IC50; higher = weaker neutralization
[1] = target: SARS-CoV-2 Omicron BA.1 spike pseudovirus
Procedure: (§1)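 Single-round VSV luciferase pseudovirus mixed with antibody dilutions for 1 h and put on Huh-7 cells for about a day; IC50 from the dose curve.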

[2] = target: SARS-CoV-2 Omicron BA.2 spike pseudovirus
Procedure: as §1

[3] = target: SARS-CoV-2 Omicron BA.2.75 spike pseudovirus
Procedure: as §1

[4] = target: SARS-CoV-2 Omicron BA.5 spike pseudovirus
Procedure: as §1

[5] = target: SARS-CoV-2 Omicron BQ.1.1 spike pseudovirus
Procedure: as §1

[6] = target: SARS-CoV-2 Omicron XBB spike pseudovirus
Procedure: as §1

[7] = target: SARS-CoV-2 early D614G spike pseudovirus
Procedure: as §1

B1: BD55-6345 (protein)
chain 1: EVQLVESGGGLVKPGGSLRLSCAASGFTFSSFDMNWVRQAPGKGLEWVSSITTSSSYIYYADSMKGRFTISRDDAKNSLYLQMNSLRAEDTAVYYCARASSNYFGLNYFDYWGRGTLVTVSS
chain 2: EIMMTQSPATLSVSPGDRATLSCRASQSVSSNLAWYQQKPGQAPRLLIYGASTRATGIPARFSGSGSGTEFTLTVSSLQSEDFAVYHCQQYHIWPPMYTFGQGTKLEIK
[1]
  pseudovirus neutralization IC50: > 10 µg/mL
[2]
  pseudovirus neutralization IC50: > 10 µg/mL
[3]
  pseudovirus neutralization IC50: > 10 µg/mL
[4]
  pseudovirus neutralization IC50: > 10 µg/mL
[5]
  pseudovirus neutralization IC50: > 10 µg/mL
[6]
  pseudovirus neutralization IC50: > 10 µg/mL
[7]
  pseudovirus neutralization IC50: > 10 µg/mL

B2: BD55-6346 (protein)
chain 1: QLQLQGSGPRLVKPSETLSLTCTVSGGSVSSSSYYWGWIRQPPGKGLEWIGSMYYSGTSYYHPSLTSRVTISIDTSKNQFSLQLSSVTAADTALYYCARGLYGYCTGANCYGDFYFDFWGQGTLVTVSS
chain 2: DIQMTQSPSTLSASVGDKVTIPCRASQSISSWLAWYQQKPGKAPKLLIYKASSLESGVPSRFSGSGSGTEFTLTISSLQPDDFATYYCQQYSTYPWTFGQGTKVEIE
[1]
  pseudovirus neutralization IC50: 1.64 µg/mL
[2]
  pseudovirus neutralization IC50: 2.3 µg/mL
[3]
  pseudovirus neutralization IC50: 3.3 µg/mL
[4]
  pseudovirus neutralization IC50: 1.51 µg/mL
[5]
  pseudovirus neutralization IC50: 6.46 µg/mL
[6]
  pseudovirus neutralization IC50: 3.66 µg/mL
[7]
  pseudovirus neutralization IC50: 3.13 µg/mL

B3: BD55-6349 (protein)
chain 1: EVRLVESGGGLVQPGGSLRLSCAASGFTVSTYDMHWVRQVTGKGLEWVSGIGTAGDTYYLGSVRGRFTISREKAKNSLYLQMNSLRAGDTAVYYCVRAPSYYYYYYMDVWGKGTTVTVSS
chain 2: EVVLTQSPGTLSMSPGERASLSCRASQSVTTNYVAWYQQKPGQAPRLLIYHASSRATGVPDRFSGSGSDTDFTLTISRLEPEDFAVYYCQLYGSSPMYTFGQGTRLEIK
[1]
  pseudovirus neutralization IC50: 3.24 µg/mL
[2]
  pseudovirus neutralization IC50: 2.74 µg/mL
[3]
  pseudovirus neutralization IC50: 3.66 µg/mL
[4]
  pseudovirus neutralization IC50: 2.12 µg/mL
[5]
  pseudovirus neutralization IC50: > 10 µg/mL
[6]
  pseudovirus neutralization IC50: > 10 µg/mL
[7]
  pseudovirus neutralization IC50: 2.51 µg/mL

B4: BD55-6350 (protein)
chain 1: EVHLLESGGGLVQPGGSLRLSCGASGLTFRNYAMTWVRQAPGKGLEWVSSISGVGGRAYHADSVKGRFAISRDNSKNTLYLQMNSLTAEDTATYYCAKDLSFDFWTGYDKLSHYEYGMDVWGQGTTVTVSS
chain 2: EIVLTQSPGTLSLSPGERATLSCRASQTISSTYIAWYQHKPGQAPRLLIYGASSRATGIPDRFSGSGSGTDFTLTISRLEPEDFAVYYCQQYGSSPPYTFGQGTKLQIK
[1]
  pseudovirus neutralization IC50: > 10 µg/mL
[2]
  pseudovirus neutralization IC50: > 10 µg/mL
[3]
  pseudovirus neutralization IC50: > 10 µg/mL
[4]
  pseudovirus neutralization IC50: > 10 µg/mL
[5]
  pseudovirus neutralization IC50: > 10 µg/mL
[6]
  pseudovirus neutralization IC50: > 10 µg/mL
[7]
  pseudovirus neutralization IC50: 4.7 µg/mL

B5: BD55-6361 (protein)
chain 1: QVQLVDSGGGVVQPGRSLRLSCAASKFTFSSYAMQWVRQAPGKGLEWVAVISSDGSDKYYADSVKGRFTISRDNSKNTLYLQMNSLRPEDTAVYYCARPRRTVTYHDAFDFWGQGTMVTVSS
chain 2: EIVLTQSPGTLSLSPGERATLSCRASQIFSSSYLAWYQQKVGQAPRLLMYDAFSRATGIPDRFSGSWSGTDFTLTISRLEPEDFAVYYCQYYGSSPITFGQGTRLEIK
[1]
  pseudovirus neutralization IC50: > 10 µg/mL
[2]
  pseudovirus neutralization IC50: > 10 µg/mL
[3]
  pseudovirus neutralization IC50: > 10 µg/mL
[4]
  pseudovirus neutralization IC50: > 10 µg/mL
[5]
  pseudovirus neutralization IC50: > 10 µg/mL
[6]
  pseudovirus neutralization IC50: > 10 µg/mL
[7]
  pseudovirus neutralization IC50: > 10 µg/mL

B6: BD55-1232 (protein)
chain 1: EVQLVQSGAEVKKPGESLKISCKGSGYRFTSYWIGWVRQMPGKGLEWMGTISPDDSDTRYSPSFEGQVTISVDKSISTAYLHWSSLKASDTAMYYCARTGIPQYDAILTGYRWDFDCWGQGSLVTVSS
chain 2: EIVLTQSPATLSLSPGERATLSCRASQSVSSYLAWYQQKLGQAPRLLIYDASNRATGIPARFSGSGSGTDFTLTISSLEPEDFAVYYCQQRSNWSPGTFGQGTKLEIK
[1]
  pseudovirus neutralization IC50: > 10 µg/mL
[2]
  pseudovirus neutralization IC50: > 10 µg/mL
[3]
  pseudovirus neutralization IC50: > 10 µg/mL
[4]
  pseudovirus neutralization IC50: > 10 µg/mL
[5]
  pseudovirus neutralization IC50: > 10 µg/mL
[6]
  pseudovirus neutralization IC50: > 10 µg/mL
[7]
  pseudovirus neutralization IC50: 0.0749 µg/mL
